Measured values taken from patent publication US5656449A, “Neutral unsymmetrical cyanine dyes” (Molecular Probes, Inc., priority 1995, dated 1997).
Structures can show the parent of a compound that is named as a salt.

System: E. Coli ribosomal RNA
Assay: Quantum yield of dyes bound to ribosomal RNA (Table 1)

Structure (SMILES) | Quantum Yield (RNA)
COc1ccc2nc(C=C3Sc4ccccc4N3C)ccc2c1 [Dye 1267] | 0.12
CN1C(=Cc2ccnc3ccccc23)Oc2ccccc21 [Dye 799] | 0.48
CN1C(=Cc2ccncc2)Sc2ccccc21 [Dye 7101] | 0.12
CCN(CC)c1cc(C=C2Sc3ccccc3N2CC)c2ccccc2n1 [Dye 510] | 0.44
Cc1cc(C=C2Sc3ccccc3N2C)nc2ccccc12 [Dye 523-1] | 0.29
CN1C(=Cc2cc[n+](C)c3ccccc23)Sc2ccccc21 [Thiazole Orange, reference compound] | 0.15
CN1C(=Cc2ccnc3ccccc23)Sc2ccccc21 [Dye 798, 4-(2,3-dihydro-3-methyl-(benzo-1,3-thiazol-2-yl)-methylidine)-quinolinium tosylate] | 0.13
CCN1C(=Cc2cc(-c3ccccc3)nc3ccccc23)Sc2ccccc21 [Dye 4100] | 0.07
CN1C(=Cc2ccc3ccccc3n2)Sc2ccccc21 [Dye 7100] | 0.09
CCN1C(=Cc2ccnc3ccccc23)Sc2ccccc21 [Dye 1266] | 0.12
Cc1cc(C=C2Sc3ccccc3N2C)c2ccccc2n1 [Dye 523-2] | 0.28
CCCCc1cc(C=C2Sc3ccccc3N2CC)c2ccccc2n1 [Dye 1268] | 0.24
CN1C(=Cc2cc[n+](C)c3ccccc23)Oc2ccccc21 [Oxazole Yellow, reference compound] | 0.54
CCN1C(=Cc2cc(Sc3ccccc3)nc3ccccc23)Sc2ccccc21 [Dye 509] | 0.07
